# Positions that govern dimerization of the HIV-1 5' RNA

Values reported by Ye et al. 2022 (doi:10.1038/s41594-022-00746-2).

RNA: 5' end of the HIV-1 NL4-3 genome, made in vitro. Positions 1-437 read:
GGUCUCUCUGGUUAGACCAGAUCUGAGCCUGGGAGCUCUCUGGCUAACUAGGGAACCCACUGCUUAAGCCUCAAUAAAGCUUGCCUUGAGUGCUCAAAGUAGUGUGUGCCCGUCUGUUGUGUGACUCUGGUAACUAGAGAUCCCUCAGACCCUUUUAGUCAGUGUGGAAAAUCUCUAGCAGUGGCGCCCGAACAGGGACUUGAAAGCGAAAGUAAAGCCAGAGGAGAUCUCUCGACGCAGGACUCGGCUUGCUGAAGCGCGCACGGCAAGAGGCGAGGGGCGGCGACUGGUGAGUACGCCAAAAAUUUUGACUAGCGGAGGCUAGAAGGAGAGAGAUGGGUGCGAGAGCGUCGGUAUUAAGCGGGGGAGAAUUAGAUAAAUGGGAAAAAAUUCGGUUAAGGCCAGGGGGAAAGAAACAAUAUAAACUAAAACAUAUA

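Mutant RNA libraries with 1G, 2G or 3G starts, with or without cap, were folded at 37 °C for 30 min. Monomer and dimer bands were cut from native gels after folding in high salt (300 mM KCl, 5 mM MgCl2) or low salt (40 mM KCl, 0.1 mM MgCl2). Kdimer compares mutation frequencies in monomer and dimer, corrected for sequencing errors.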

Scale: median log2 Kdimer over the changes at a position; positive = changes inhibit dimerization, negative = changes enhance it.
One numbering serves 1G, 2G and 3G.
A position is written with its base.

* C151 (domain PBS): 2G capped low-salt -0.17; 2G uncapped low-salt -0.06
* C152 (domain PBS): 2G capped low-salt -0.32; 2G uncapped low-salt 0.03
* U153 (domain PBS): 2G capped low-salt 0.17; 2G uncapped low-salt 0.00
* U154 (domain PBS): 2G capped low-salt -0.15; 2G uncapped low-salt 0.10
* U155 (domain PBS): 2G capped low-salt 0.06; 2G uncapped low-salt -0.06
* U156 (domain PBS): 2G capped low-salt -0.17; 2G uncapped low-salt -0.11
* A157 (domain PBS): 2G capped low-salt -0.11; 2G uncapped low-salt -0.01
* G158 (domain PBS): 2G capped low-salt -0.29; 2G uncapped low-salt -0.49
* U159 (domain PBS): 2G capped low-salt -0.29; 2G uncapped low-salt 0.14
* C160 (domain PBS): 2G capped low-salt -0.34; 2G uncapped low-salt -0.24
* A161 (domain PBS): 2G capped low-salt -0.05; 2G uncapped low-salt -0.05
* G162 (domain PBS): 2G capped low-salt -0.47; 2G uncapped low-salt -0.45
* U163 (domain PBS): 2G capped low-salt -0.04; 2G uncapped low-salt 0.07
* G164 (domain PBS): 2G capped low-salt 0.10; 2G uncapped low-salt 0.15
* U165 (domain PBS): 2G capped low-salt -0.08; 2G uncapped low-salt -0.01
* G166 (domain PBS): 2G capped low-salt 0.23; 2G uncapped low-salt 0.10
* G167 (domain PBS): 2G capped low-salt 0.47; 2G uncapped low-salt 0.32
* A168 (domain PBS): 2G capped low-salt 0.45; 2G uncapped low-salt 0.39
* A169 (domain PBS): 2G capped low-salt 0.02; 2G uncapped low-salt 0.05
* A170 (domain PBS): 2G capped low-salt -0.07; 2G uncapped low-salt 0.07
* A171 (domain PBS): 2G capped low-salt 0.17; 2G uncapped low-salt 0.29
* U172 (domain PBS): 2G capped low-salt 0.36; 2G uncapped low-salt 0.38
* C173 (domain PBS): 2G capped low-salt -0.38; 2G uncapped low-salt -0.41
* U174 (domain PBS): 2G capped low-salt -0.54; 2G uncapped low-salt -0.56
* C175 (domain PBS): 2G capped low-salt -0.38; 2G uncapped low-salt -0.25
* U176 (domain PBS): 2G capped low-salt 0.00; 2G uncapped low-salt -0.27
* A177 (domain PBS): 2G capped low-salt -0.47; 2G uncapped low-salt -0.54
* G178 (domain PBS): 2G capped low-salt 0.40; 2G uncapped low-salt 0.21
* C179 (domain PBS): 2G capped low-salt -0.50; 2G uncapped low-salt -0.27
* A180 (domain PBS): 2G capped low-salt -0.13; 2G uncapped low-salt -0.12
* G181 (domain PBS): 2G capped low-salt -0.62; 2G uncapped low-salt -0.64
* U182 (domain PBS): 2G capped low-salt 0.14; 2G uncapped low-salt -0.09
* G183 (domain PBS): 2G capped low-salt 0.03; 2G uncapped low-salt 0.22
* G184 (domain PBS): 2G capped low-salt 0.24; 2G uncapped low-salt 0.46
* C185 (domain PBS): 2G capped low-salt -0.30; 2G uncapped low-salt -0.37
* G186 (domain PBS): 2G capped low-salt -0.48; 2G uncapped low-salt -0.37
* C187 (domain PBS): 2G capped low-salt -0.17; 2G uncapped low-salt -0.24
* C188 (domain PBS): 2G capped low-salt 0.05; 2G uncapped low-salt 0.16
* C189 (domain PBS): 2G capped low-salt -0.03; 2G uncapped low-salt 0.09
* G190 (domain PBS): 2G capped low-salt 0.25; 2G uncapped low-salt 0.37
* A191 (domain PBS): 2G capped low-salt -0.13; 2G uncapped low-salt -0.06

A selection of 3 entries from above:

{"position": "C179", "domain": "PBS", "2G capped low-salt": -0.50, "2G uncapped low-salt": -0.27}
{"position": "U176", "domain": "PBS", "2G capped low-salt": 0.00, "2G uncapped low-salt": -0.27}
{"position": "C185", "domain": "PBS", "2G capped low-salt": -0.30, "2G uncapped low-salt": -0.37}